# Laboratory results: PubChem BioAssay AID1259414 (Drosophila RNAi Screening Center, 2018)
# Test: 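Fly genes that alter Wolbachia amount inside host cells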 (primary screen)
# System: Drosophila JW18 cells infected with Wolbachia
# Reagent: long dsRNA against Drosophila genes, 0.25 µg dsRNA per well of a 384-well plate
# Time to read-out: 5 days
# Treatment: cells persistently infected with Wolbachia before knock-down; no added drug
# Read-out: 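Imaged fluorescence in situ signal for Wolbachia 23S rRNA per DAPI-counted host cell, given as a robust z-score within each plate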
# Direction: Wolbachia per cell robust z: higher = more Wolbachia per host cell than the plate typical
# Call rule: 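Active if absolute robust z reaches 1.5 in two or more of three replicates, leaving out multi- or no-target dsRNAs, genes unexpressed in JW18 and A1 wells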
# The screen tested about 24,000 reagents; shown is an unselected part of those with a known target gene and a result. In the full data, about 1,210 (5%) got an active call. 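Inactive calls also include excluded dsRNAs with several or no targets, genes unexpressed in JW18, and well A1, regardless of score.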 The numbers tell different reagents against one gene apart. A plus sign joins genes that one reagent is predicted to hit. Reagent sequences are not shown.
Gene,reagent no.,"Wolbachia per cell robust z, rep 1","Wolbachia per cell robust z, rep 2","Wolbachia per cell robust z, rep 3",call
CG11368,1,-1.8,-2.91,0.407,inactive
CG13386,1,-0.223,1.45,-0.46,inactive
CG13386,2,0.00652,0.721,-0.266,inactive
PolD2,1,-0.125,-0.0918,-0.14,inactive
CG9586,1,1.24,-0.943,-0.341,inactive
CG9586,2,0.25,-6.61,-0.789,inactive
Sulf1,1,-0.515,-0.625,-0.52,inactive
Sulf1,2,0.126,-0.237,0.229,inactive
sinu,1,1.06,0.859,0.837,inactive
Mipp1,1,0.563,-1.83,-1.77,inactive
cv-c,1,-5.82,-0.821,0.76,inactive
cv-c,2,-0.828,-0.742,-0.0464,inactive
cv-c,3,-2.39,0.2,-0.306,inactive
cv-c,4,0.563,0.113,1.38,inactive
cv-c,5,0.267,0.197,-0.16,inactive
cv-c,6,1,-1.19,2.45,inactive
cv-c,7,0.37,-0.111,-0.892,inactive
cv-c,8,0.205,-2.29,-0.333,inactive
nAChRalpha4,1,-0.617,0.105,-1.2,inactive
nAChRalpha4,2,0.343,0.844,-0.0439,inactive
l(2)k09913,1,-1.54,-0.765,-0.267,inactive
lncRNA:CR34006,1,0.458,1.73,0.899,inactive
Jon66Cii,1,0.52,-4.21,-0.0543,inactive
Jon66Cii,2,0.171,-0.59,0.327,inactive
Vinc,1,0.694,0.647,0.326,inactive
O-fut1,1,-1.04,-0.313,1.01,inactive
O-fut1,2,-2.06,-0.57,-0.805,inactive
Ser12,1,-0.314,1.07,-0.0234,inactive
CG10914,1,0.424,1,-1.69,inactive
CG18675,1,-7.94,-1.19,-0.393,inactive
dsx-c73A,1,-0.884,-4.98,-0.42,inactive
dsx-c73A,2,0.467,-0.156,0.601,inactive
dsx-c73A,3,-4.03,-0.426,0.178,inactive
sphe,1,0.164,0.463,-0.998,inactive
CG3651,1,-0.111,0.128,0.638,inactive
Ibf2,1,-0.801,1.89,0.77,inactive
SLO2,1,-1.34,-0.669,-2.74,inactive
SLO2,2,0.676,0.754,0.492,inactive
SLO2,3,-0.305,-0.577,-0.711,inactive
SLO2,4,-0.0396,-0.288,-0.147,inactive
SLO2,5,-0.197,1.04,1.28,inactive
CG18536,1,0.306,-0.641,-2.19,inactive
CG12106,1,-1.53,-6.34,0.52,active
Txl,1,1.12,1.27,1.31,inactive
blo,1,0.675,0.462,0.0347,inactive
blo,2,-0.5,-0.276,0.63,inactive
CG42718,1,-1.66,-0.0551,-2.85,inactive
CG13970,1,0.611,-5.21,0.836,inactive
CG13970,2,-0.681,-3.15,0.299,inactive
CG10752,1,-0.678,0.726,0.847,inactive
CG9632,1,-0.399,-6.1,0.541,inactive
CG1764,1,0.28,0.136,-0.446,inactive
CG12868,1,-0.0639,0.587,-0.288,inactive
CG12868,2,-0.869,-1.27,-0.0694,inactive
lncRNA:CR32652,1,-1.97,-1.25,0.366,inactive
lncRNA:CR32652,2,-0.143,0.103,-1.46,inactive
lncRNA:CR32652,3,-0.726,0.811,-0.487,inactive
CG33764,1,1.09,0.489,1.53,inactive
CG12702,1,-0.539,-1.62,-2.2,active
CG12702,2,0.419,-0.483,0.881,inactive
CG6983,1,-7.57,0.00167,1.03,inactive
CR43670 + CR43669 + grp + 1 more,1,1.59,1.38,0.789,inactive
Eip74EF,1,1.25,2.16,-0.455,inactive
Eip74EF,2,-2.1,0.341,-1.44,inactive
Eip74EF,3,-2.43,-0.414,-1.42,inactive
CG1090,1,-0.901,0.441,0.516,inactive
CG1090,2,-0.00728,0.374,0.599,inactive
Ubqn,1,-3.9,1.81,-0.193,inactive
Ubqn,2,0.968,1.11,0.299,inactive

Records listed so far whose target name starts with O or o:
Gene,reagent no.,"Wolbachia per cell robust z, rep 1","Wolbachia per cell robust z, rep 2","Wolbachia per cell robust z, rep 3",call
O-fut1,1,-1.04,-0.313,1.01,inactive
O-fut1,2,-2.06,-0.57,-0.805,inactive
